Measurements reported in PubChem BioAssay AID624099 (ICCB-Longwood, 2012).
The deposit covers about 21,000 reagents; shown is a part drawn at random. In the full data, 497 (2.4%) are marked active. 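Higher z means weaker E2 silencing; only reporter increases were scored, and knock-downs that hurt cell survival may mask genuine repressor factors.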

Purpose: 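Human genes that papillomavirus E2 requires to repress the HPV18 LCR promoter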 (primary screen)
Cells: human C33A cervical carcinoma cells (HPV-negative) stably expressing BPV1 E2 and an HPV18 LCR luciferase reporter
Knock-down reagent: siRNA pool against human genes, 40 nM
Timing: 72 h
Detection: 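HPV18 LCR reporter light per well, converted to plate-wise z-scores that exclude control wells, and averaged over triplicate plates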
Scale: mean z-score and z-score: higher = stronger reporter signal, weaker E2 silencing
Call rule: 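Mean z ≥ 2 together with z ≥ 2 in two or more of the three replicates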

Against SLC23A3 the deposit lists mean z-score -0.46; z-score, replicate A = -0.89; z-score, replicate B = -0.24; z-score, replicate C = -0.24; inactive. With knock-down of CDIN1, the record shows mean z-score -1.64; z-score, replicate A = -1.85; z-score, replicate B = -1.64; z-score, replicate C = -1.42; inactive. LOC338750 (retired record) gave mean z-score -0.28; z-score, replicate A = 0.1; z-score, replicate B = -0.42; z-score, replicate C = -0.52; inactive. Silencing of OR4F3 came out at: mean z-score -1.72; z-score, replicate A = -1.55; z-score, replicate B = -2.03; z-score, replicate C = -1.57; inactive. CEP97 showed mean z-score -0.22; z-score, replicate A = -0.36; z-score, replicate B = -0.1; z-score, replicate C = -0.2; inactive. Against ZNF83, the entry reads mean z-score 0.44; z-score, replicate A = 0.18; z-score, replicate B = 0.22; z-score, replicate C = 0.91; inactive.

Against KIZ, the entry reads mean z-score -0.14; z-score, replicate A = -0.77; z-score, replicate B = 0.14; z-score, replicate C = 0.2; inactive. With knock-down of OXR1 the results were mean z-score -0.26; z-score, replicate A = -0.23; z-score, replicate B = -0.04; z-score, replicate C = -0.5; inactive. Against RFX4 the deposit lists mean z-score -0.09; z-score, replicate A = -0.07; z-score, replicate B = -0.36; z-score, replicate C = 0.16; inactive.

Sorted by “z-score, replicate A” (lowest first): some entries from above
CDIN1 — mean z-score: -1.64; z-score, replicate A: -1.85; z-score, replicate B: -1.64; z-score, replicate C: -1.42; Call: inactive
SLC23A3 — mean z-score: -0.46; z-score, replicate A: -0.89; z-score, replicate B: -0.24; z-score, replicate C: -0.24; Call: inactive

The listing continues.
Against VGLL1 the deposit lists mean z-score -0.4; z-score, replicate A = -0.12; z-score, replicate B = -0.89; z-score, replicate C = -0.17; inactive. Depletion of SGMS1 came out at: mean z-score 0.3; z-score, replicate A = 0.51; z-score, replicate B = 0.37; z-score, replicate C = 0.03; inactive. Against CTNNA3, the entry reads mean z-score -0.48; z-score, replicate A = -0.58; z-score, replicate B = -0.42; z-score, replicate C = -0.43; inactive. After knock-down of PRDM14 the results were mean z-score -0.41; z-score, replicate A = -0.46; z-score, replicate B = -0.66; z-score, replicate C = -0.12; inactive. Against MARCHF8 the deposit lists mean z-score 1.58; z-score, replicate A = 1.39; z-score, replicate B = 1.63; z-score, replicate C = 1.72; inactive. For CEBPD, the values are mean z-score -1.06; z-score, replicate A = -1.39; z-score, replicate B = -1.14; z-score, replicate C = -0.65; inactive.

IFNG scored mean z-score -0.3; z-score, replicate A = -0.35; z-score, replicate B = -0.25; z-score, replicate C = -0.3; inactive. With knock-down of ZFP64 the results were mean z-score -0.56; z-score, replicate A = -0.45; z-score, replicate B = -0.62; z-score, replicate C = -0.61; inactive. Silencing of H4C11 came out at: mean z-score -0.01; z-score, replicate A = 0.19; z-score, replicate B = -0.22; z-score, replicate C = -0.01; inactive. LINC00907 scored mean z-score -0.02; z-score, replicate A = 0.18; z-score, replicate B = -0.08; z-score, replicate C = -0.16; inactive. For CTBP1, the values are mean z-score 0.51; z-score, replicate A = 0.53; z-score, replicate B = 0.53; z-score, replicate C = 0.47; inactive. MTNAP1 showed mean z-score -0.69; z-score, replicate A = -0.65; z-score, replicate B = -0.36; z-score, replicate C = -1.07; inactive.

STPG4 gave mean z-score 0.41; z-score, replicate A = 0.77; z-score, replicate B = -0.05; z-score, replicate C = 0.52; inactive. ZNF646 scored mean z-score 1.12; z-score, replicate A = 1.03; z-score, replicate B = 1.24; z-score, replicate C = 1.08; inactive. With knock-down of TSPY16P, the record shows mean z-score 0.08; z-score, replicate A = -0.19; z-score, replicate B = -0.04; z-score, replicate C = 0.46; inactive. Knock-down of NOTUM came out at: mean z-score -1.46; z-score, replicate A = -1.97; z-score, replicate B = -1.64; z-score, replicate C = -0.78; inactive. HMBS showed mean z-score 0.91; z-score, replicate A = 0.84; z-score, replicate B = 1.44; z-score, replicate C = 0.43; inactive. Against TCP10L3 the deposit lists mean z-score 0.99; z-score, replicate A = 0.9; z-score, replicate B = 0.82; z-score, replicate C = 1.26; inactive.
